Human monoclonal antibodies against the spike receptor-binding domain (heavy:light variable regions). IC50 against pseudoviruses bearing the spike of naturally observed variants; lower = stronger; >10 µg/ml means not reached at the top dose. No active / inactive call. The stated detection limit is 0.0005 µg/ml; values near or below 0.001 µg/ml lie at the floor of the assay.
B1: BD58-0575 (protein)
chain 1: QVQLVESGGGVVQPGRSLRLSCAASGFTFRNYGLHWVRQAPGKGLEWVAVISYDGENKYYVESVKGRFTISRDNSKNTLFLQMNSLRGDDTAVYYCAKGAGPYCSGASCYDTQAFDYWGQGTLVTVSS
chain 2: SYVLTQPPSVSVAPGKTASITCGGNNIQSKSVHWYQQKPGQAPVLVIYYDIDRPSGIPERFSGSKSGNTATLTISRVEAGDEADYYCQVWDSSSDHYVFGTGTRVAVL
B2: BD58-0572 (protein)
chain 1: QVQLQESGPGLVKPSETLSLTCTVSGGSTSRYYWHWIRQPPGKGLEWIGYIYYSGTTNYNPSLKSRATISVDTSKNQFSLKVNSMTAVDTAVYYCARSVGSSWYGDTYYHFAMDVWGQGTTVTVSS
chain 2: EIVMTQSPATLSVSPGERATLSCRASQSVSNNLAWYQQKPGQAPRLLIYGASTRATGIPARFSGSGSGTEFTLTISSLQSEDFAVYFCQHYNNWPPAITFGPGTKVDIK
B3: BD56-1221 (protein)
chain 1: QVQLVESGGGVVQPQRSLRLSCAASGFPFTNYVMHWVRQAPGKGLEWVAVISSDGSTKYYADSVKGRFTTSRDNFKNTLYLQMSSLRAEDTAVYYCARALGNPRTTYYYHGFDVWGQGTTVTVSS
chain 2: DIQLTQSPSSLSASVGDRVTITCRASQSINSYLNWYRQKPGKAPKLLIYAASTLQSGVPSRFSGSGSETDFALTISSLQPEDFATYYCQQSYNTHSTFGPGTRVDIK
B4: BD58-0571 (protein)
chain 1: QLQLQESGPGLVKPSETLSLTCTVSGGSISSSSYYWGWIRQPPGKGLEWIGSFYHSGSTYYNPSLQSRVTISEDTSRNQLSLKVTSVTAADTAVYYCARQRFGYCTGGVCHGDWYFDLWGRGTLVTVSS
chain 2: DIQMTQSPSTLSASVGDRVTITCRASQSFSSWLAWYQQKPGKAPKLLIYKASNLESGVPSRFSGSGSGTEFTLTISSLQPDDLATYYCQQYSTYPWTFGQGTKVEIK
B5: BD58-0588 (protein)
chain 1: QITLNESGPTLVKPTQTLTLTCTFSGFSLNTIGVGVGWIRQPPGKALEWLALIYWDDDKRYSPSLKRRLTITKDTSKNQVVLTMTSMDPADTATYYCATLGGYFDWLSWGYWGQGTLVTVSS
chain 2: QSVLTQPPSASGTPGQRVTICCSGNYSNIGSNFVYWYQQLPGAAPKPLIYRNNQRPSGVPDRFSGSKSGTSASLAISGLRSEDEADYYCAAWDDSLNAWVFGRGTKVTVL
B6: COV2-2046 (protein)
chain 1: EVQLVESGGGLVQPGRSLRLSCAASGFTFDDYAMHWVRQAPGKGLEWVSGISWNSGSIAYTDSVKGRFTISRDNAKNSLYLQMNSLRAEDTALYYCAKAHSTGHQYYYGMDVWGQGTTVTVSS
chain 2: DIQMTQSPSSLSASVGDRVTITCRASQSISSFLNWYQQKPGKAPKLLIYAAFNLQSGVPSRFSGSGSGTDFTLTISSLQSEDFATYYCQQSYNTPYTFGQGTKLEIK
B7: BD56-1244 (protein)
chain 1: EVQVVESGGGLVKPGGSLRLSCAASGFTFRSYSMNWVRQGPGQGPEWVSFISSGSSFRDYADSVKGRFTIYRDNAKNSVYLQMHGLRAEDTAVYYCARGGYTDNSDWYDNPNDLDYAMDVWGQGTTVAVSS
chain 2: EIVMTQSPATLSVSPGERATLSCRASQSVSSNLAWYQQKPGQAPRLLIYGASTRATGIPARFSGSGSGTEFTLTISSLQSEDFAVYYCQQYNNWPRTFGQGTEVEIK
B8: BD56-1247 (protein)
chain 1: QVQLQESGPGLVKPSQTLSLTCTVSGGSVRDEVYYWSWIRQPPGKGLEWIGYIHNSGNTYYNPSLKSRVVISVDMSKNQFSLKLNSVTAADTAVYYCARVDVGGTLVSTFDYWGQGILVTVSS
chain 2: EFMLTQPHSVSESPEMTVTISCTGSSGSIASNYVQWYQQRPGSAPRTVIYENNQRPSGVPNRFSGSIDSSSNSASLTISGLKTEDEADYYCQSYDDSNVAVFGGGTQLTVL
B9: BD56-1220 (protein)
chain 1: QVQLVQSGAEVKKPGASVRISCKASGYTFTSYYIHWVRQAPGQGLEWMGIVNPSAGSTSYALKFQGRVTMTGDTSTSTVYMELSSLRPEDTAMYYCARDFFLIPAANAFDIWGQGTMVTVSS
chain 2: EIVLTQSPDTLSLSPGERATLSCRASQSVSTYLAWYQQKPGQAPRLLIYDASNRATGIPARFSGSGSGTDFTLTISSLEPEDFAVYYCQQRTNWPRMYTFGQGTKLEIK
B10: BD56-1226 (protein)
chain 1: QVHLVQSGAAVQKPGASLKVSCQASGSTFTNQYIHWVRQAPGQGLEWMGIINPSAGSTTYAQKFQGRLTMTTDTSTSTLYMELRSLRSEDTAVYYCARDLVFVPASSALDVWGQGTTVTVSS
chain 2: EIVLTQSPATLSLSPGERATLSCKASQSVSTYLAWYQQKPGQAPRLLIYDASNRATGIPTRFSGSGSGTDFTLTISSLEPEDFAVYYCQQRSGWPRMFSFGPGTKVAIK
B11: BD58-0578 (protein)
chain 1: EVLLLESGGDLVQPGGSLRLSCAASGFTFTNYAMTWVRQSPGRGLEWVSSISGSGDKKYYADSVKGRFTISRDNSKNTLYLQMNGLRAEDPAVYYCAKALYSYSSAYRDVFDIWGQGTRVTVSS
chain 2: QSALTQPASVSGSPGQSITISCTGTSSDVGNYNLVSWYQQHPGKAPKLMIYEVSKRPSGVSNRFFASKSDNTASLTISGLQTEDEADYYCCSYASSGTYYVFGTGTRVTVL
B12: BD56-1198 (protein)
chain 1: EVQLVESGGGLIQPGGSLRLSCAASGIIVSRNYMSWVRQAPGKGLEWVSLIYSGGTTYYADSVKGRFTTSRDNSKNTLYLQMNSLRAEDTAVYYCARSVGYGRFDYWGQGTLVTVSS
chain 2: DIQMTQSPSSLSASVGDRVTITCQASQDINNYLNWYQQKPGKAPKLLIYDASNLETGVPSRFSGSGSETDFTFTISSLQPEDIATYYCQQYDNLPPVTFGPGTKVDIK

biological target: SARS-CoV-2 Omicron BA.1 spike pseudovirus; test: pseudovirus neutralization IC50; higher = weaker neutralization
Protocol: (§1)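 Single-round VSV luciferase pseudovirus mixed with antibody dilutions for 1 h and put on Huh-7 cells for about a day; IC50 from the dose curve.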

B1 and B2 cannot be ordered by “pseudovirus neutralization IC50” value: greater than 10 µg/mL for the first, greater than 10 µg/mL for the second.

B3 and B4 cannot be ordered by “pseudovirus neutralization IC50” value: greater than 10 µg/mL for the first, greater than 10 µg/mL for the second.

Compared with B5, B6 is 7.2-fold lower in “pseudovirus neutralization IC50” value: 0.0349 µg/mL for the first, 0.00485 µg/mL for the second.

Compared with B7, B8 is 3-fold lower in “pseudovirus neutralization IC50” value: 0.0174 µg/mL for the first, 0.00576 µg/mL for the second.

First: B9
Second: B10
The “pseudovirus neutralization IC50” value of the first is lower: 1.96 µg/mL for the first, greater than 10 µg/mL for the second.

First: B11
Second: B12
The “pseudovirus neutralization IC50” value of the first is higher: greater than 10 µg/mL for the first, 0.0116 µg/mL for the second.

biological target: SARS-CoV-2 Omicron BA.2 spike pseudovirus; test: as above
Protocol: as §1

B1 and B2 cannot be ordered by “pseudovirus neutralization IC50” value: greater than 10 µg/mL for the first, greater than 10 µg/mL for the second.

B3 and B4 cannot be ordered by “pseudovirus neutralization IC50” value: greater than 10 µg/mL for the first, greater than 10 µg/mL for the second.

First: B5
Second: B6
The “pseudovirus neutralization IC50” value of the first is 1.8-fold higher: 0.00823 µg/mL for the first, 0.0045 µg/mL for the second.

First: B7
Second: B8
The “pseudovirus neutralization IC50” value of the first is 4.3-fold higher: 0.0145 µg/mL for the first, 0.00337 µg/mL for the second.

Going from B9 to B10, the “pseudovirus neutralization IC50” value rises from 2.58 µg/mL to greater than 10 µg/mL.

Going from B11 to B12, the “pseudovirus neutralization IC50” value falls from greater than 10 µg/mL to 0.00442 µg/mL.

biological target: SARS-CoV-2 Omicron BA.2.75 spike pseudovirus; test: as above
Protocol: as §1

B1 and B2 cannot be ordered by “pseudovirus neutralization IC50” value: greater than 10 µg/mL for the first, greater than 10 µg/mL for the second.

B3 and B4 cannot be ordered by “pseudovirus neutralization IC50” value: greater than 10 µg/mL for the first, greater than 10 µg/mL for the second.

Compared with B5, B6 is 24-fold lower in “pseudovirus neutralization IC50” value: 0.0733 µg/mL for the first, 0.003 µg/mL for the second.

Compared with B7, B8 is 4.1-fold lower in “pseudovirus neutralization IC50” value: 0.0138 µg/mL for the first, 0.00335 µg/mL for the second.

Compared with B9, B10 is higher in “pseudovirus neutralization IC50” value: 2.64 µg/mL for the first, greater than 10 µg/mL for the second.

Compared with B11, B12 is lower in “pseudovirus neutralization IC50” value: greater than 10 µg/mL for the first, 0.00609 µg/mL for the second.

biological target: SARS-CoV-2 Omicron BA.5 spike pseudovirus; test: as above
Protocol: as §1

B1 and B2 cannot be ordered by “pseudovirus neutralization IC50” value: greater than 10 µg/mL for the first, greater than 10 µg/mL for the second.

B3 and B4 cannot be ordered by “pseudovirus neutralization IC50” value: greater than 10 µg/mL for the first, greater than 10 µg/mL for the second.

Going from B5 to B6, the “pseudovirus neutralization IC50” value rises from 0.0055 µg/mL to 0.18 µg/mL (33-fold).

Compared with B7, B8 is 350-fold lower in “pseudovirus neutralization IC50” value: 0.784 µg/mL for the first, 0.00226 µg/mL for the second.

Compared with B9, B10 is higher in “pseudovirus neutralization IC50” value: 3.86 µg/mL for the first, greater than 10 µg/mL for the second.

Compared with B11, B12 is lower in “pseudovirus neutralization IC50” value: greater than 10 µg/mL for the first, 0.00359 µg/mL for the second.

biological target: SARS-CoV-2 Omicron BQ.1.1 spike pseudovirus; test: as above
Protocol: as §1

B1 and B2 cannot be ordered by “pseudovirus neutralization IC50” value: greater than 10 µg/mL for the first, greater than 10 µg/mL for the second.

B3 and B4 cannot be ordered by “pseudovirus neutralization IC50” value: greater than 10 µg/mL for the first, greater than 10 µg/mL for the second.

Going from B5 to B6, the “pseudovirus neutralization IC50” value falls from greater than 10 µg/mL to 0.581 µg/mL.

Going from B7 to B8, the “pseudovirus neutralization IC50” value falls from greater than 10 µg/mL to 0.00543 µg/mL.

First: B9
Second: B10
The “pseudovirus neutralization IC50” value of the first is lower: 3.46 µg/mL for the first, greater than 10 µg/mL for the second.

First: B11
Second: B12
The “pseudovirus neutralization IC50” value of the first is higher: greater than 10 µg/mL for the first, 0.0197 µg/mL for the second.

biological target: SARS-CoV-2 Omicron XBB spike pseudovirus; test: as above
Protocol: as §1

B1 and B2 cannot be ordered by “pseudovirus neutralization IC50” value: greater than 10 µg/mL for the first, greater than 10 µg/mL for the second.

B3 and B4 cannot be ordered by “pseudovirus neutralization IC50” value: greater than 10 µg/mL for the first, greater than 10 µg/mL for the second.

B5 and B6 cannot be ordered by “pseudovirus neutralization IC50” value: greater than 10 µg/mL for the first, greater than 10 µg/mL for the second.

Going from B7 to B8, the “pseudovirus neutralization IC50” value falls from 0.397 µg/mL to 0.00715 µg/mL (56-fold).

Compared with B9, B10 is higher in “pseudovirus neutralization IC50” value: 2.55 µg/mL for the first, greater than 10 µg/mL for the second.

Going from B11 to B12, the “pseudovirus neutralization IC50” value falls from greater than 10 µg/mL to 0.0827 µg/mL.

biological target: SARS-CoV-2 early D614G spike pseudovirus; test: as above
Protocol: as §1

B1 and B2 cannot be ordered by “pseudovirus neutralization IC50” value: greater than 10 µg/mL for the first, greater than 10 µg/mL for the second.

B3 and B4 cannot be ordered by “pseudovirus neutralization IC50” value: greater than 10 µg/mL for the first, greater than 10 µg/mL for the second.

First: B5
Second: B6
The “pseudovirus neutralization IC50” value of the first is higher: greater than 10 µg/mL for the first, 0.00237 µg/mL for the second.

First: B7
Second: B8
The “pseudovirus neutralization IC50” value of the first is 1.5-fold lower: 0.0184 µg/mL for the first, 0.0279 µg/mL for the second.

B9 and B10 cannot be ordered by “pseudovirus neutralization IC50” value: greater than 10 µg/mL for the first, greater than 10 µg/mL for the second.

B11 and B12 cannot be ordered by “pseudovirus neutralization IC50” value: greater than 10 µg/mL for the first, greater than 10 µg/mL for the second.
